Assay results as given in patent US20190359693A1, “Binding molecules directed against influenza hemagglutinin and uses thereof” (Janssen / Centocor, published 2019).

B1: SD3024 (VHH)
VHH: EVQLLESGGGLVQPGGSLRLSCAASGRTYAMSWFRQAPGKEREFVSHINALGTRTYYADSVKGRFTISRDNSKNTLYLQMNSLRAEDTAVYYCTAQGQWRAAPVAVAAEYEFWGQGTQVTVSS
B2: SD3026 (VHH)
VHH: B1 VHH with H47A
B3: SD3027 (VHH)
VHH: B1 VHH with P14A, H47A, A85P
B4: SD3098 (VHH)
VHH: B1 VHH with S32G, S46A, H47A, A85P, Q118L
B5: SD3025 (VHH)
VHH: B1 VHH with S46A
B6: SD3097 (VHH)
VHH: B1 VHH with S32G, S46A, H47A, Q118L
B7: SD3094 (VHH)
VHH: B1 VHH with S32G, S46A, Q118L
B8: SD3041 (VHH)
VHH: EVQLVESGGGLVQPGGSLRLSCAASGRTLSIYSMSWFRQAPGKEREFVSAIGWNSGRTYYADSVKGRFTISRDNSKNTLYLQMNSLRAEDTAVYYCAAAKGPLRLSSQADYWGQGTQVTVSS
B9: SD3046 (VHH)
VHH: B8 VHH with P14A, A50T
B10: SD3042 (VHH)
VHH: B8 VHH with A50T
B11: SD3045 (VHH)
VHH: B8 VHH with P14A
B12: SD3043 (VHH)
VHH: B8 VHH with S49A, A50T
B13: SD3013 (VHH)
VHH: EVQLVESGGGVVQPGGSLRLSCAASISIFDIYAMDWYRQAPGKQRELVATSFRDGSTYYADSVKGRFTISRDNSKNTLYLQMNSLRAEDTAVYLCHVSLYRDPLGVAGGMGVYWGKGALVTVSS
B14: SD3089 (VHH)
VHH: B13 VHH with D35H, A49S, T50V, L94Y, M110L, K116Q, A118T
B15: SD3018 (VHH)
VHH: B13 VHH with D35H, T50V
B16: SD3031 (VHH)
VHH: B13 VHH with V11L, A24V, E46D, Y58N, S74A, R86K, A87P, M110V
B17: SD3022 (VHH)
VHH: B13 VHH with T50V, A87P, M110I
B18: SD3017 (VHH)
VHH: B13 VHH with D35H
B19: SD3030 (VHH)
VHH: B13 VHH with V11L, A24V, E46D, Y58N, S74A, R86K, A87P, M110I
B20: SD3014 (VHH)
VHH: B13 VHH with T50V
B21: SD3080 (VHH)
VHH: B13 VHH with T50V, A87P, L94Y, M110L, K116Q, A118T
B22: SD3019 (VHH)
VHH: B13 VHH with D35H, A49S, T50V
B23: SD3029 (VHH)
VHH: B13 VHH with V11L, A24V, E46D, Y58N, S74A, R86K, A87P, M110L
B24: SD3079 (VHH)
VHH: B13 VHH with T50V, L94Y, M110L, K116Q, A118T
B25: SD3078 (VHH)
VHH: B13 VHH with A49S, T50V, L94Y, M110L, K116Q, A118T
B26: SD1036 (VHH)
VHH: EVQLVESGGGLVQAGGSLKLSCAASGRTYAMGWFRQAPGKEREFVAHINALGTRTYYSDSVKGRFTISRDNAKNTEYLEMNNLKPEDTAVYYCTAQGQWRAAPVAVAAEYEFWGQGTQVTVSS
B27: SD3028 (VHH)
VHH: B1 VHH with P14A, S46A, A85P
B28: SD3096 (VHH)
VHH: B1 VHH with S32G, S46A, L76V, A85P, Q118L
B29: SD3023 (VHH)
VHH: B1 VHH with P14A, A85P
B30: SD3095 (VHH)
VHH: B1 VHH with S32G, S46A, A85P, Q118L
B31: SD1046 (VHH)
VHH: EVQLVESGGGLVQAGDSLRISCAASGRTLSIYSMGWFRQAPGKEREFVATIGWNSGRTFYPDSLKGRFTISRDNARNTLYLQMNNLRPEDTAVYYCAAAKGPLRLSSQADYWGQGTQVTVSS
B32: SD3047 (VHH)
VHH: B8 VHH with P14A, S49A, A50T
B33: SD3048 (VHH)
VHH: B8 VHH with P14A, A50T, S75A, K76R
B34: SD3067 (VHH)
VHH: B8 VHH with S35G, S49A, A50T, Y59F, A61P, V64L, Q117L
B35: SD3044 (VHH)
VHH: B8 VHH with A50T, S75A, K76R

Key:
[1] = molecular target: hemagglutinin (HA) of influenza A/Hong Kong/1/68-ma (H3N2) (influenza A virus A/Hong Kong/1/68-ma …); assay: cell-based or functional assay
[2] = molecular target: hemagglutinin (HA) of influenza A/Puerto Rico/8/34-ma (H1N1) (influenza A virus A/Puerto Rico/8/34-ma …); assay: cell-based or functional assay

Binder | VNA IC50 [1] [nM] | VNA IC50 [2] [nM]
B1 | 206 | –
B2 | 36 | –
B3 | 30 | –
B4 | 20 | –
B5 | 280 | –
B6 | 32 | –
B7 | 20 | –
B8 | 858 | –
B9 | 253 | –
B10 | 253 | –
B11 | 632 | –
B12 | 466 | –
B13 | – | 8
B14 | – | 2
B15 | – | 3
B16 | – | 15
B17 | – | 6
B18 | – | 6

Binder | VNA IC50 [1] [nM] | VNA IC50 [2] [nM]
B19 | – | 6
B20 | – | 4
B21 | – | 3
B22 | – | 6
B23 | – | 2
B24 | – | 3
B25 | – | 3
B26 | 78 | –
B27 | 280 | –
B28 | 20 | –
B29 | 206 | –
B30 | 26 | –
B31 | 26 | –
B32 | 253 | –
B33 | 343 | –
B34 | 8 | –
B35 | 253 | –

Positions count from the first letter of the chain named.
